# System: ZIKV (MR766, PRVABC59, R103451)
# Assay: ZIKV replication and release from Vero cells
# Settings: dependent on dose, MOI, duration of infection and strain
smiles,measurement,value
"Nc1ccn([C@@H]2OC(CO)=C[C@H]2O)c(=O)n1 [ddhC, 3′-deoxy-3′,4′-didehydro-cytidine]",reduction in ZIKV virus titers,1-2 orders of magnitude
